Values quoted from earlier work as cited in article PMC3930637.

Target: HIV-1 capsid (CA) CA (Human immunodeficiency virus 1) (UniProt O93182)
Assay: ITC

Cyclophilin A (from UniProt P62937)
Kd: 7 µM
